Data on nine compounds can be found in PMC4204995, “Inhibition of Influenza Virus Replication by Targeting Broad Host Cell Pathways” (PLoS ONE, 2014).

Counter-ions that a name gives are not always drawn.

The test system of the data set is MDCK cells. As to the kind of experiment: XTT cytotoxicity assay in MDCK cells. The conditions noted are these: ratio CC50 / EC50. A general note: Formazan colour is commonly taken as a measure of viable cells.
Take `COc1cc(CNC(=O)CCCC/C=C/C(C)C)ccc1O` [Capsaicin, capsaicin]: the “In vitro therapeutic index” value came to 2.67. Consider `C=C[C@H]1C[N@@]2CC[C@H]1C[C@H]2[C@H](O)c1ccnc2ccc(OC)cc12` [Quinine, Quinine sulfate], for which the “In vitro therapeutic index” value came out at 44.90.

As for `OC(c1cc(C(F)(F)F)nc2c(C(F)(F)F)cccc12)C1CCCCN1` (stereo not drawn) [Mefloquine, mefloquine hydrochloride], the “In vitro therapeutic index” value is listed as 4.47. On to `CO/C1=C\C(C)=C\[C@@H](C)[C@@H](O)[C@@H](C)C/C(C)=C/C=C/[C@H](OC)[C@@H]([C@@H](C)[C@@H](O)[C@H](C)[C@@]2(O)C[C@@H](O)[C@H](C)[C@@H](C(C)C)O2)OC1=O` [Bafilomycin A, bafilomycin A], for which the “In vitro therapeutic index” value is 4.19. Turning to `CNc1ccc2oc(C[C@H]3O[C@@]4(CC[C@H]3C)O[C@H]([C@H](C)C(=O)c3ccc[nH]3)[C@H](C)C[C@H]4C)nc2c1C(=O)O` [A23187 (calcimycin), calcimycin (A23187)], the “In vitro therapeutic index” value is listed as 5.16. As for `CN(C)c1nc(N)c(C(=O)NC(=N)N)nc1Cl` [5-(N,N-Dimethyl)amiloride hydrochloride, 5-(N,N-Dimethyl) amiloride hydrochloride], the figure is 5.63. As to `C=C[C@H]1C[N@@]2CC[C@H]1C[C@@H]2[C@@H](O)c1ccnc2ccc(OC)cc12` [Quinidine, quinidine anhydrous], the “In vitro therapeutic index” value is given as 10.32. `CCN(CC)CCCCCCCCOC(=O)c1cc(OC)c(OC)c(OC)c1.Cl` [TMB-8, TMB-8 hydrochloride]: the “In vitro therapeutic index” value was 20.91. For `CCN(CC)CCCC(C)Nc1c2ccc(Cl)cc2nc2ccc(OC)cc12` (stereo not drawn) [Quinacrine, quinacrine dihydrochloride], the “In vitro therapeutic index” value is recorded as 4.93.
